This note sets out measurements from paper PMC8105722 (The Journal of Experimental Medicine, 2021).

For orientation: Km means the substrate concentration at which the rate is half of its maximum.

Common to all, as to assay: purified protein
For one data set, the system named is N[C@H](CCC(=O)O)C(=O)O. The note with it: pH 8.5.
In data set [1] the test system is C=C(O[C@@H]1C=C(C(=O)O)C=C[C@H]1N)C(=O)O. Conditions: pH 8.5; 25.0 °C.
For the next data set, the system named is C[C@@H](N)C(=O)O. The note with it: pH 8.5; 25.0 °C.

In the case of (Mycobacterium tuberculosis H37Rv), the figures for the Km (with N[C@H](CCC(=O)O)C(=O)O; in data set [1]; with C[C@@H](N)C(=O)O) were 240 ± 50 µM, 400 µM and 7300 ± 1100 µM, respectively.
